# Screening data, single-dose tests

Values are the deposited “Percent Effect”, in %.
The record does not define 0% and 100%; most values in the screen are far below 50% and negative numbers occur (in some assays of this library far below -100).
This is part of a subset picked to be rich in strong results.

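Phenotypic screen: M. tuberculosis growth, glucose 7H9 medium, 3 days; the read-out is not stated. Tested at 500 µM. Higher reads as more growth inhibition (inferred: compounds with an IC50 in retests scored well above the rest). Size under these conditions: about 18,000 compounds, about 1,400 of them at 50% or above in at least one test.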

For NCc1noc(-c2ccc3c(c2)OCO3)n1 the result was 15.78%. For CNC(=O)COc1ccccc1OC the result was -6.95%. Result for CC(C)Oc1ccc(CNC(=O)N2CCCC2)cn1 was 70.99%. With Cn1ncnc1CCNC(=O)c1ccsc1 the screen gave 2.656%. CN(C)CCNC(=O)c1ccc(Br)o1 gave -7.302%. For Cc1noc(C2COCCN2Cc2cccnc2C)n1 (stereo unspecified) the result was 10.81%.

With COc1cccc(CNCC2(C)COC2)n1 the screen gave 33.83%. NC(=O)CN1CCC(COCc2ccccc2)C1 (stereo unspecified) gave 74.98%. Cc1cc(Br)oc1C(=O)N1CCOC(C)C1 (stereo unspecified) gave 27.6%. Result for CC(=O)c1ccc(CNC(=O)c2cc[nH]n2)nc1C was 3.56%. c1cncc(CCNCc2cccc3c2OCCO3)c1 gave 24.02%. Result for COc1ccccc1S(=O)(=O)N1C[C@H](C(C)C)[C@@H](N)C1 was 10.49%.

For NCc1ccc(OC2CCCCC2)nc1 the result was 52.36%. With CN1CCN(C(=O)Nc2c(F)cc(F)cc2Br)CC1=O the screen gave -7.861%. With Cc1n[nH]c(SCC(=O)NCCCc2ncc[nH]2)n1 the screen gave 14.1%. CCc1noc(COC2CNC2)n1 read 14.77%. Result for Cn1ccnc1CNC1CC1 was 3.794%. NC1(CO)CCc2ccccc21 (stereo unspecified) gave 13.74%.

COc1cc(Br)c(CN(C)CC(=O)N(C)C)c(OC)c1 gave 7.061%. COCCCNS(=O)(=O)c1cccc2cc(C)cnc12 gave 42.24%. With COCC1(C(=O)NCCNc2cccnc2)CCC1 the screen gave 10.23%. With COCCN(CC(N)=O)CC(=O)N(C)c1ccccc1 the screen gave 16.69%. With O=C(c1ccncc1C(F)(F)F)N1CC[C@@H](CO)C1 the screen gave -2.158%. Result for Cc1cc(S(=O)(=O)N(C)Cc2nnc[nH]2)c(C)o1 was 21.78%.

CN(C)C(=O)CCN1CCC(CNc2ccccn2)C1 (stereo unspecified) read -10.27%. Result for O=C1OCCC1Sc1nnc(Nc2ccccc2)s1 (stereo unspecified) was 54.16%. O=C(NCCCn1ncc2ccccc21)C1CC1 read 67.65%. For Cc1ccc(CNC(=O)c2ccncc2)cc1F the result was -9.784%. Result for N[C@H]1CCN(S(=O)(=O)c2ccc(F)c(C(F)(F)F)c2)C1 was 65.03%. For Cc1ncc(CSC2CCN(C)C2=O)s1 (stereo unspecified) the result was -4.693%.

Result for Cc1ncsc1C(=O)NC(C)C(C)C (stereo unspecified) was 58.6%. Result for CC(C)[C@@H](CO)NCc1ncn(-c2ccccc2)n1 was 5.321%. With COC(=O)CCN1CCN(CC2CCCC2)C(=O)C1 the screen gave 40.79%. With CCN1CCN(Cc2ccc3c(c2)OCO3)CC1 the screen gave 7.907%. CN(C)c1ccc(CN(C)[C@@H]2CCCC[C@@H]2O)cn1 gave 13.01%. CC(C)c1noc(OCCNS(C)(=O)=O)n1 gave -17.84%.

With CC(NC(=O)CSc1nnnn1C1CC1)c1cccs1 (stereo unspecified) the screen gave 64.71%. With CCNc1ncc(C(=O)N2CCCCC2)s1 the screen gave 92.69%. O=C(Nc1ncccn1)C1(c2ccccc2)CC1 read 4.403%. With O=C(CN(CC(=O)NC1CC1)C1CC1)NC1CC1 the screen gave -1.456%. Result for O=C(CSc1cnn[nH]1)Nc1ccc(Cl)cn1 was 64.78%. Result for CCOc1ccccc1CCC(N)=O was 9.094%.

For CC1CCCN(CC(=O)Nc2ccccc2C(N)=O)C1 (stereo unspecified) the result was 70.88%. COc1cccc(CNc2cncc(SC)n2)n1 gave 71.05%. For Cc1cccc(C)c1NC(=O)C1CCS(=O)(=O)C1 (stereo unspecified) the result was -7.18%. Result for CCOC(CC)CNC(=O)c1cnn(C(C)C)c1 (stereo unspecified) was 25.44%. CCNC(=O)c1cc2ccccc2n1C read 39.45%. Result for NCCOc1ccc2ccccc2n1 was 69.09%.

For Cc1nc(CCN2CCc3c(c(CO)nn3C)C2)cs1 the result was -8.188%.

The values are deposited in ChEMBL (CHEMBL3988442, “University of Dundee, Small-Polar-MMV Screening Library” (2021)).